Measured values from several laboratories, pooled; numbers as filed in NIAID ChemDB.

Shared fields: whole-cell or culture tests; species: Cytomegalovirus; cell line: HEL; read-out: EC50

ECn: concentration that inhibits the pathogen or its effect by n%.

SMILES | strain | read by | result
OC[C@H]1O[C@@H](n2c(SCc3ccccn3)nc3ccccc32)[C@H](O)[C@@H]1O | - | cytopathic effect | >100 µg/mL
C#C[C@H](O)C1=C[C@@H](n2cnc3c(N)ncnc32)[C@H](O)[C@@H]1O | AD169 | cytopathic effect | >50 µg/mL
Nc1ncc2ncn(C[C@@H](CO)OCP(=O)(O)O)c2n1 | AD169 | cytopathic effect | 122 µM
Nc1ncnc2c1ncn2C[C@H]1COP(=O)(O)CO1 | DAVIS | cytopathic effect | 1 µg/mL
Cc1ccc(C)c(CS(=O)(=O)c2c(O)ccc[n+]2[O-])c1 | - | cytopathic effect | >50 µg/mL
Nc1nc(N)c2ncn(C[C@H](CF)OCP(=O)(O)O)c2n1 | AD169 | cytopathic effect | >300 µM
Nc1ccn(C[C@@H](CO)OCP(=O)(O)O)c(=O)n1 | AD169 | plaque count | 2.7 µM
CCCCCc1ccc(-c2cc3cn([C@H]4C[C@H](O)[C@@H](CCl)O4)c(=O)nc3o2)cc1 | - | - | >5 µM
Nc1ncnc2c1ncn2[C@@H]1C=C(CO)[C@@H](O)[C@H]1O | DAVIS | cytopathic effect | 0.4 µg/mL
CN1c2ccccc2C(C)(C)C12C=Nc1c(ccc3ccccc13)O2 | DAVIS | plaque count | >9.8 µM
Nc1nc(Cl)c2ccn([C@H]3CO[C@@H](CO)C3)c2n1 | DAVIS | cytopathic effect | >10 µg/mL
Cc1ccc(C)c(CS(=O)(=O)c2cccc(C)[n+]2[O-])c1 | - | cytopathic effect | >50 µg/mL
CC(C)CS[C@H]1C[C@@H](n2cnc3c(N)ncnc32)[C@H](O)[C@@H]1O | AD169 | cytopathic effect | >200 µg/mL
Nc1nc2c(ncn2C[C@@H](CO)OCP(=O)(O)O)c(=O)[nH]1 | AD169 | cytopathic effect | 0.66 µM
CCCCCCc1cc2cnc(OC)nc2o1 | AD169 | cytopathic effect | >8 µM
CC1(C)[C@@H](CCO)C[C@H]1n1cnc2c(=O)[nH]c(N)nc21 | DAVIS | plaque count | >50 µg/mL
O=C1O/C(=C\Cn2cc(C(F)(F)F)c(=O)[nH]c2=O)C(O)=C1O | - | - | >50 µg/mL
CC(C)C[C@H](NC(=O)n1nnc2ccccc21)C(=O)NC(c1ccccc1)c1ccccc1 | AD169 | plaque count | >16 µg/mL
Cc1ccc(C)c(C(CCCCCCBr)S(=O)(=O)c2cccc[n+]2[O-])c1 | - | cytopathic effect | >20 µg/mL
C[C@@H](Cn1cnc2c(=O)[nH]c(N)nc21)OCP(=O)(O)O | AD169 | cytopathic effect | 30 µM
Nc1nc(F)nc2c1ncn2[C@@H]1C=C(CO)[C@@H](O)[C@H]1O | DAVIS | cytopathic effect | >5 µg/mL
Nc1ncnc2c1ncn2C[C@@H](CO)OCP(=O)(O)O | DAVIS | plaque count | 0.2 µg/mL
N#Cc1ccccc1CS(=O)(=O)c1cccc[n+]1[O-] | - | cytopathic effect | >5 µg/mL
OC[C@H]1O[C@@H](c2cc(C(O)C(Br)Br)c(F)cc2F)C[C@@H]1O | DAVIS | cytopathic effect | >200 µg/mL
Nc1nc2c(ncn2[C@H]2CCC[C@H]2CO)c(=O)[nH]1 | DAVIS | plaque count | >50 µg/mL
Cc1ccccc1C(c1ccccc1)S(=O)(=O)c1cccc[n+]1[O-] | - | cytopathic effect | 11.5 µg/mL
CC1(C)[C@@H](CO)CC[C@@]1(C)Cn1cnc2c(N)ncnc21 | AD169 | cytopathic effect | >50 µg/mL
CCCCCCc1cc2cn(CCCC)c(=O)nc2o1 | DAVIS | cytopathic effect | 20 µM
O=S(=O)(Cc1ccc(F)cc1)c1cccc[n+]1[O-] | - | cytopathic effect | >20 µg/mL
O=C1O/C(=C\Cn2ccc(=O)[nH]c2=O)C(O)=C1O | - | - | >50 µg/mL
CC1(C)[C@@H](CO)CC[C@@]1(C)Cn1nnc2c(=O)[nH]cnc21 | AD169 | cytopathic effect | >50 µg/mL
[O-][n+]1ccccc1SCc1ccccc1 | - | cytopathic effect | >50 µg/mL
CN1c2ccc([N+](=O)[O-])cc2C(C)(C)C12C=Cc1cc([N+](=O)[O-])ccc1O2 | DAVIS | plaque count | >8.7 µM
OC[C@H]1O[C@@H](n2c(CCc3ccccn3)nc3cc(Cl)c(Cl)cc32)[C@H](O)[C@@H]1O | - | cytopathic effect | >100 µg/mL
Nc1nc2c(ncn2C[C@@H](CF)OCP(=O)(O)O)c(=O)[nH]1 | AD169 | cytopathic effect | >300 µM
CC1(C)[C@@H](CCO)C[C@H]1n1nnc2c(N)nc(N)nc21 | DAVIS | plaque count | >20 µg/mL
OCCOCn1c(SCc2ccccn2)nc2ccccc21 | - | cytopathic effect | >100 µg/mL
CC1(C)[C@@H](CO)CC[C@@]1(C)Cn1nnc2c(Cl)ncnc21 | DAVIS | cytopathic effect | >50 µg/mL
CCOc1ccccc1CS(=O)(=O)c1cccc[n+]1[O-] | - | cytopathic effect | >20 µg/mL
COc1ccc2c(c1)C=CC1(O2)N(C)c2ccccc2C1(C)C | DAVIS | plaque count | >10.4 µM
Cc1ccc[n+]([O-])c1S(=O)(=O)Cc1ccccc1 | - | cytopathic effect | >20 µg/mL
OC[C@H]1O[C@@H](c2cc(C(O)C(I)I)c(F)cc2F)C[C@@H]1O | DAVIS | cytopathic effect | >200 µg/mL
Nc1nc2c(ncn2C[C@H]2CCC[C@H]2CO)c(=O)[nH]1 | AD169 | plaque count | >50 µg/mL
CCCCCCCn1cc2cc(CCCCCC)oc2nc1=O | AD169 | cytopathic effect | 20 µM
Nc1nc2c(ncn2C[C@H](CO)OCP(=O)(O)O)c(=O)[nH]1 | AD169 | cytopathic effect | 0.56 µM
O=S(=O)(Cc1ccccc1)c1ncccc1O | - | cytopathic effect | >50 µg/mL
Cc1nc([N+](=O)[O-])c(N2CCCC2)n1Cc1ccc(Cl)cc1 | DAVIS | cytopathic effect | 2.3 µg/mL
O=c1[nH]c(=O)n([C@H]2C[C@H](O)[C@@H](CO)O2)cc1/C=C/Br | AD169 | cytopathic effect | 200 µg/mL
Nc1ncc2ncn([C@H]3CCC[C@H]3CO)c2n1 | DAVIS | plaque count | >20 µg/mL
Nc1nc2c(ncn2[C@H]2CO[C@@H](CO)C2)c(=O)[nH]1 | DAVIS | cytopathic effect | >40 µg/mL
Nc1nc2c(ncn2COC(CO)CO)c(=O)[nH]1 | DAVIS | plaque count | 0.5 µg/mL
OC[C@H]1O[C@@H](n2c(CCc3ccccn3)nc3ccccc32)[C@H](O)[C@@H]1O | - | cytopathic effect | >100 µg/mL
CCCCCCCCc1cc2cn([C@H]3C[C@H](O)[C@@H](CCl)O3)c(=O)nc2o1 | - | - | >5 µM
NC1=NS(=O)(=O)N(Cc2ccccc2)c2nc[nH]c21 | DAVIS | plaque count | >50 µg/mL
Cc1ccc(C)c(C(C)S(=O)(=O)c2cc(C)cc(C)[n+]2[O-])c1 | - | cytopathic effect | 14 µg/mL
CC(C)C[C@H](NC(=O)n1nnc2ccccc21)C(=O)NC1CCCC1 | AD169 | plaque count | >3.2 µg/mL
O=c1c2ncn(COC(CO)CO)c2nc2[nH]c(-c3ccccc3)cn12 | DAVIS | plaque count | 7 µg/mL
Nc1nc2c(ncn2CC(CO)OCP(=O)(O)O)c(=O)[nH]1 | AD169 | plaque count | 0.1 µg/mL
CC1(C)[C@@H](CCO)C[C@H]1n1nnc2c(Cl)nc(N)nc21 | AD169 | plaque count | >50 µg/mL
CC(C)C[C@H](NC(=O)n1nnc2ccccc21)C(=O)NC1CCCCC1 | DAVIS | plaque count | >16 µg/mL
Cc1ccc(C)c(C(Cc2ccccc2)S(=O)(=O)c2cccc[n+]2[O-])c1 | - | cytopathic effect | 6.7 µg/mL
CC(C)C[C@H](NC(=O)n1nnc2ccccc21)C(=O)NCC1CCCCC1 | DAVIS | plaque count | >80 µg/mL
CCCCCCCCc1cc2cn([C@H]3C[C@H](Cl)[C@@H](CO)O3)c(=O)nc2o1 | - | - | >5 µM
CCC(C)C1NC(=O)N(CC2CCCCC2)C1=O | DAVIS | plaque count | 20 µg/mL
O=C1OC(C(O)Cn2cc(F)c(=O)[nH]c2=O)C(OCc2ccccc2)=C1OCc1ccccc1 | - | - | >50 µg/mL
Nc1nc2c(ncn2COCCO)c(=O)[nH]1 | DAVIS | cytopathic effect | 20 µg/mL
CN1c2ccc(Cl)cc2C(C)(C)C12C=Nc1c(ccc3ccccc13)O2 | DAVIS | plaque count | >44 µM
Cc1cn([C@H]2C/C(=N\O)[C@@H](CO)O2)c(=O)[nH]c1=O | DAVIS | cytopathic effect | >200 µg/mL
COc1ccc2c(c1)OC1(C=C2)N(C)c2ccc(Cl)cc2C1(C)C | DAVIS | plaque count | 7 µM
NC1=NS(=O)(=O)N(Cc2ccccc2)c2nc(-c3ccc(Cl)cc3)[nH]c21 | AD169 | plaque count | >5 µg/mL
Cc1ccccc1C(C(N)=O)S(=O)c1cccc[n+]1[O-] | - | cytopathic effect | >50 µg/mL
Nc1nc2c(ncn2COC(CO)CO)c(=O)[nH]1 | DAVIS | plaque count | 9.1 µM

Again, the opening 6 rows:

{"SMILES": "OC[C@H]1O[C@@H](n2c(SCc3ccccn3)nc3ccccc32)[C@H](O)[C@@H]1O", "read by": "cytopathic effect", "result": ">100 µg/mL"}
{"SMILES": "C#C[C@H](O)C1=C[C@@H](n2cnc3c(N)ncnc32)[C@H](O)[C@@H]1O", "strain": "AD169", "read by": "cytopathic effect", "result": ">50 µg/mL"}
{"SMILES": "Nc1ncc2ncn(C[C@@H](CO)OCP(=O)(O)O)c2n1", "strain": "AD169", "read by": "cytopathic effect", "result": "122 µM"}
{"SMILES": "Nc1ncnc2c1ncn2C[C@H]1COP(=O)(O)CO1", "strain": "DAVIS", "read by": "cytopathic effect", "result": "1 µg/mL"}
{"SMILES": "Cc1ccc(C)c(CS(=O)(=O)c2c(O)ccc[n+]2[O-])c1", "read by": "cytopathic effect", "result": ">50 µg/mL"}
{"SMILES": "Nc1nc(N)c2ncn(C[C@H](CF)OCP(=O)(O)O)c2n1", "strain": "AD169", "read by": "cytopathic effect", "result": ">300 µM"}

An empty or dashed field is not shown. Rows are shuffled and stem from different studies.